Anti-infective test results gathered from many reports (values: NIAID ChemDB through PubChem).

Common to all: growth or infection tests; species: HIV-2; endpoint: EC50

An empty or dashed field is not shown. ECn is the concentration giving n% inhibition of infection, replication or growth. Rows are shuffled and stem from different studies.

SMILES | strain | cell line | read by | result
CC(C)CCC[C@@H](C)[C@H]1CC[C@H]2[C@@H]3CC[C@H]4C[C@@H](CCC=C(c5cc(Cl)c(OCc6ccc(C(=O)O)cc6)c(C(=O)O)c5)c5cc(Cl)c(OCc6ccc(C(=O)O)cc6)c(C(=O)O)c5)CC[C@]4(C)[C@H]3CC[C@]12C | ROD | MT-4 | cytopathic effect / MTT | 55 µM
CCCCCCC(=O)Oc1ccc(COP(=O)(OCc2ccc(OC(=O)CCCCCC)cc2)OP(=O)([O-])OC[C@@H]2C=C[C@H](n3ccc(=O)[nH]c3=O)O2)cc1 | ROD | CEM | syncytia | 30 µM
COC(=O)CCCCCNP(=O)(OC[C@@H]1C=C[C@H](n2cc(C)c(=O)[nH]c2=O)O1)Oc1ccccc1 | ROD | CEM + CEM TK- | cytopathic effect / trypan blue | >250 µM
O=C(c1ccc2[nH]c(=O)oc2c1)c1ccccc1F | ROD | CEM | syncytia | >8 µg/mL
COc1cc(/C=C/C(=O)c2c(O)c3cc(Cl)c(C)cc3oc2=O)ccc1O | ROD | MT-4 | virus yield | >6.64 µg/mL
Cc1cccc(C(=O)c2ccc3[nH]c(=O)sc3c2)c1 | ROD | CEM | syncytia | 3.5 µg/mL
O=c1ccn([C@H]2C=C[C@@H](CO)O2)c(=O)[nH]1 | ROD | CEM | syncytia | >250 µM
COc1cc(/C(C)=N/Nc2nc(-c3ccc(Cl)cc3)cs2)cc(OC)c1OC | ROD | MT-4 | MTT | >16.39 µM
CCCCCCC(=O)Oc1ccc(COP(=O)(OCc2ccc(OC(=O)CCCCCC)cc2)OP(=O)([O-])OC[C@@H]2CC[C@H](n3ccc(=O)[nH]c3=O)O2)cc1 | ROD | CEM | syncytia | 30 µM
COc1ncnc(NS(=O)(=O)c2ccc(N=C3C(=O)N(CN4CCNCC4)c4ccccc43)cc2)c1OC | ROD | MT-4 | cytopathic effect / MTT | >2 µg/mL
Cc1cc2oc(=O)c(C(=O)/C=C/c3ccccc3)c(O)c2cc1Cl | ROD | MT-4 | virus yield | >8.56 µg/mL
COC(=O)[C@H](C)NP(=O)(OC[C@@H]1C=C[C@H](n2cc(C)c(=O)[nH]c2=O)O1)Oc1ccccc1 |  | CEM + CEM TK- |  | 0.075 µM
CCCCC(=O)c1ccc2c(c1)sc(=O)n2CC=O | ROD | CEM | syncytia | >8 µg/mL
CCC(CC)(NP(=O)(OC[C@@H]1C=C[C@H](n2cc(C)c(=O)[nH]c2=O)O1)Oc1ccccc1)C(=O)OC |  | CEM |  | 28.3 µM
C(=N\Nc1nc(-c2ccccc2)cs1)/c1ccco1 | ROD | MT-4 | MTT | >11.3 µM
CCCC(CCC)(NP(=O)(OC[C@@H]1C=C[C@H](n2cc(C)c(=O)[nH]c2=O)O1)Oc1ccccc1)C(=O)OC |  | CEM + CEM TK- |  | >50 µM
C/C(=N\Nc1nc(-c2ccc(Cl)cc2)cs1)c1ccc(-c2ccc(Br)cc2)cc1 | ROD | MT-4 | MTT | >10.23 µM
COC(=O)CCNP(=O)(OC[C@@H]1C=C[C@H](n2cc(C)c(=O)[nH]c2=O)O1)Oc1ccccc1 | ROD | CEM + CEM/0 | cytopathic effect / trypan blue | ≥250 µM
O=C(c1cccc(F)c1)c1ccc2c(c1)oc(=O)n2CCN1CCCCC1 | ROD | CEM | syncytia | ≥5.1 µg/mL
Cc1cn([C@H]2C=C[C@@H](CO)O2)c(=O)[nH]c1=O | ROD | CEM + CEM TK- | cytopathic effect / trypan blue | 25 µM
Cc1ccc(C(C)C)c2oc(=O)c(C(=O)/C=C/c3cccc([N+](=O)[O-])c3)c(O)c12 | ROD | MT-4 | virus yield | >13.1 µg/mL
Oc1ccccc1/C=N/Nc1nc(-c2ccc(Br)cc2)cs1 | ROD | MT-4 | MTT | >48.7 µM
COc1ccc(/C=C/C(=O)c2c(O)c3c(C)ccc(C(C)C)c3oc2=O)cc1OC | ROD | MT-4 | virus yield | >62 µg/mL
COC(=O)CNP(=O)(OC[C@@H]1C=C[C@H](n2cc(C)c(=O)[nH]c2=O)O1)Oc1ccccc1 | ROD | CEM + CEM TK- | cytopathic effect / trypan blue | 7 µM
COc1ccc(/C=C/C(=O)c2c(O)c3c(C)ccc(C(C)C)c3oc2=O)cc1 | ROD | MT-4 | virus yield | >82.7 µg/mL
COc1ncnc(NS(=O)(=O)c2ccc(N=C3C(=O)N(CN4CCCC4)c4ccccc43)cc2)c1OC | ROD | MT-4 | cytopathic effect / MTT | >2 µg/mL
O=C(c1cccc(Br)c1)c1ccc2[nH]c(=O)sc2c1 | ROD | CEM | syncytia | 8 µg/mL
Cc1cc2oc(=O)c(C(=O)/C=C/c3ccc(N(C)C)cc3)c(O)c2cc1Cl | ROD | MT-4 | virus yield | >125 µg/mL
O=C(c1cccc(Cl)c1)c1ccc2[nH]c(=O)oc2c1 | ROD | CEM | syncytia | >8 µg/mL
COc1ncnc(NS(=O)(=O)c2ccc(N=C3C(=O)N(CN4CCOCC4)c4ccccc43)cc2)c1OC | ROD | MT-4 | cytopathic effect / MTT | >1 µg/mL
O=c1ccn([C@H]2CC[C@@H](CO)O2)c(=O)[nH]1 | ROD | CEM/TK- | syncytia | >250 µM
COc1ncnc(NS(=O)(=O)c2ccc(N=C3C(=O)N(CN(C)C)c4ccccc43)cc2)c1OC | ROD | MT-4 | cytopathic effect / MTT | >1 µg/mL
O=c1[nH]c2ccc(Cc3ccc(F)cc3)cc2o1 | ROD | CEM | syncytia | >8 µg/mL
CCc1nc(NCN2C(=O)C(=Nc3ccc(S(=O)(=O)Nc4ncnc(OC)c4OC)cc3)c3cc(C)ccc32)nc(N)c1-c1ccc(Cl)cc1 | ROD | MT-4 | cytopathic effect / MTT | >7 µg/mL
COC(=O)CNP(=O)(OC[C@@H]1C=C[C@H](n2cc(C)c(=O)[nH]c2=O)O1)Oc1ccccc1 |  | CEM + CEM TK- |  | 7 µM
Cc1cn([C@H]2C=C[C@@H](CO)O2)c(=O)[nH]c1=O | ROD | CEM/TK- | syncytia | 250 µM
O=C(c1ccc(F)cc1)c1ccc2[nH]c(=O)oc2c1 | ROD | CEM | syncytia | >40 µg/mL

Repeating the final 3 entries:

SMILES,strain,cell line,read by,result
COC(=O)CNP(=O)(OC[C@@H]1C=C[C@H](n2cc(C)c(=O)[nH]c2=O)O1)Oc1ccccc1,,CEM + CEM TK-,,7 µM
Cc1cn([C@H]2C=C[C@@H](CO)O2)c(=O)[nH]c1=O,ROD,CEM/TK-,syncytia,250 µM
O=C(c1ccc(F)cc1)c1ccc2[nH]c(=O)oc2c1,ROD,CEM,syncytia,>40 µg/mL